A mixed list of measured activities; the numbers were collected in NIAID ChemDB.

Shared fields: target-level tests; species: HIV-1; protein: Reverse transcriptase; read by: nucleotide incorporation; read-out: IC50

Two numbers with a dash give a range or band. Conditions beyond the fields shown may differ between rows. An empty or dashed field is not shown. ICn is the concentration giving n% inhibition.

{"SMILES": "CCC(C)Nc1cccnc1N1CCN(C(=O)c2cc3ccccc3[nH]2)CC1", "value": "<100 µM"}
{"SMILES": "CCc1cc(CCc2nc3ccccc3o2)c(=O)[nH]c1C", "changes": "RT-Y181C", "value": "8.72 µM"}
{"SMILES": "CC(C)=CCN1Cc2cccc3[nH]c(=S)n(c23)C[C@@H]1C", "value": "0.54 µM"}
{"SMILES": "COc1ccc(OC)c(C/C=C(\\C)CC/C=C(\\C)CC/C=C(\\C)CC/C=C(\\C)CC/C=C(\\C)CCC=C(C)C)c1", "value": "38.5 µM"}
{"SMILES": "Cn1ccnc1CNC(=O)c1[nH]c2ccc(Cl)cc2c1S(=O)(=O)c1cccc(Cl)c1", "value": "0.003–0.035 µM"}
{"SMILES": "O=C(c1cc2ccccc2[nH]1)N1CCN(c2ncccc2NCCF)CC1", "value": "<100 µM"}
{"SMILES": "O=C(O)C[C@H]1C(=O)O[C@H]2[C@H](OC(=O)c3cc(O)c(O)c(O)c3)[C@@H](OC(=O)c3cc(O)c(O)c4c3[C@H]1[C@H](O)C(=O)O4)[C@H](OC(=O)c1cc(O)c(O)c(O)c1)O[C@@H]2COC(=O)c1cc(O)c(O)c(O)c1", "value": "<20 µg/mL"}
{"SMILES": "O=C(NCc1ccncc1)c1[nH]c2ccc(Cl)cc2c1S(=O)c1ccccc1", "value": "0.003–0.035 µM"}
{"SMILES": "O=C(OC1[C@H](OC(=O)c2cc(O)c(O)c(O)c2)CC(OC(=O)c2cc(O)c(O)c(O)c2)(C(=O)O)C[C@H]1OC(=O)c1cc(O)c(O)c(O)c1)c1cc(O)c(O)c(O)c1", "value": "<30 µM"}
{"SMILES": "CC(C)Nc1cccnc1NCCNC(=O)c1cc2ccccc2[nH]1", "value": ">100 µM"}
{"SMILES": "CC(C)Nc1cccnc1N1CCN(C(=O)c2cc3cc([N+](=O)[O-])ccc3[nH]2)CC1", "value": "<100 µM"}
{"SMILES": "Nc1cccc(CNC(=O)c2[nH]c3ccc(Cl)cc3c2S(=O)(=O)c2ccccc2)c1", "value": "0.003–0.035 µM"}
{"SMILES": "O=C(O)C1=C[C@@H](OC(=O)c2cc(O)c(O)c(O)c2)[C@@H](O)[C@H](OC(=O)c2cc(O)c(O)c(O)c2)C1", "value": "<20 µg/mL"}
{"SMILES": "CC(C)Nc1cc(F)ccc1N1CCN(C(=O)c2cc3ccccc3[nH]2)CC1", "value": "<100 µM"}
{"SMILES": "NC(=O)c1[nH]c2ccc(Cl)cc2c1Sc1ccccc1", "value": "0.003–0.035 µM"}
{"SMILES": "O=C(c1cc2ccccc2[nH]1)N1CCN(c2ncccc2NCc2ccccc2)CC1", "value": ">100 µM"}
{"SMILES": "O=C1OCC2OC(=O)c3cc(O)c(O)c(O)c3-c3c(O)c(O)c(O)c4c3C(=O)OC(C2OC(=O)c2cc(O)c(O)c(O)c2-c2c1cc(O)c(O)c2O)C1OC(=O)c2c-4c(O)c(O)c(O)c2[C@H]1C1(O)OC(CO)[C@@H](O)[C@H]1O", "value": ">20 µg/mL"}
{"SMILES": "O=C(NCc1cccc(CO)c1)c1[nH]c2ccc(Cl)cc2c1Sc1ccccc1", "value": "0.003–0.035 µM"}
{"SMILES": "CCNc1cccnc1N1CCN(C(=O)c2cc3ccccc3[nH]2)CC1", "value": "<100 µM"}
{"SMILES": "O=C(OC1[C@H](O)CC(OC(=O)c2cc(O)c(O)c(O)c2)(C(=O)O)C[C@H]1O)c1cc(O)c(O)c(O)c1", "value": ">20 µg/mL"}
{"SMILES": "CC(C)Nc1cccnc1N1CCN(C(=O)c2cc3ccccc3[nH]2)CC1", "value": "<100 µM"}
{"SMILES": "O=C(OC[C@H]1O[C@@H](OC(=O)c2cc(O)c(O)c(O)c2)[C@H](OC(=O)c2cc(O)c(O)c(O)c2)[C@@H](OC(=O)c2cc(O)c(O)c(O)c2)[C@@H]1O)c1cc(O)c(O)c(O)c1", "value": ">20 µg/mL"}
{"SMILES": "CC(C)Nc1cccnc1N1CCC(C2CCN(C(=O)c3cc4ccccc4[nH]3)CC2)CC1", "value": ">100 µM"}
{"SMILES": "O=C(OC1[C@H](O)CC(O)(C(=O)O)C[C@H]1O)c1cc(O)c(O)c(O)c1", "value": ">20 µg/mL"}
{"SMILES": "CC(C)Nc1cnccc1N1CCN(C(=O)c2cc3cc(F)ccc3[nH]2)CC1", "value": "<100 µM"}
{"SMILES": "CCNc1cccnc1N1CCN(CCCc2cc(C)c(OC)c(C)c2)CC1", "value": ">100 µM"}

A second listing of 2 rows from above:

SMILES,changes,value
O=C(O)C[C@H]1C(=O)O[C@H]2[C@H](OC(=O)c3cc(O)c(O)c(O)c3)[C@@H](OC(=O)c3cc(O)c(O)c4c3[C@H]1[C@H](O)C(=O)O4)[C@H](OC(=O)c1cc(O)c(O)c(O)c1)O[C@@H]2COC(=O)c1cc(O)c(O)c(O)c1,-,<20 µg/mL
CCNc1cccnc1N1CCN(CCCc2cc(C)c(OC)c(C)c2)CC1,-,>100 µM